Laboratory results from paper PMC12472551, “Comprehensive Identification and Mechanistic Evaluation of Novel DHODH Inhibitors as Potent Broad-Spectrum Antiviral Agents” (Pharmaceuticals, 2025).

System: influenza A virus (A/PR/8/34(H1N1))
Format: cell-based
Conditions: SI = CC50/IC50

| Structure (SMILES) | SI |
| --- | --- |
| CC1(c2ccccc2)CC(C)(C)N(C(=O)CSc2nc(O)cc(CSc3ccc(Cl)cc3)n2)c2ccccc21 (centres unmarked) [Compound 1] | 0.9 |
| CCCCc1nn2c(=O)cc(CSc3nc4ccc(NC(C)=O)cc4s3)nc2s1 [Compound 4] | >3.0 |
| CC(=O)c1ccc(N2CCN(C(=O)c3cc4c(=O)n(C)c5ccccc5c4s3)CC2)cc1 [Compound 6] | >41.2 |
| O=C(Cc1cccs1)Nc1ccc(N2CCN(c3ccccc3Cl)CC2)cc1C(=O)O [Compound 7] | >11.6 |
| CN1C(=O)c2ccccc2Sc2cc(-c3noc(CNC(=O)Cc4ccc(Cl)cc4)n3)ccc21 [Compound 8] | >14.9 |
| Cc1ccc(-c2onc3ccc(-c4cc(C(=O)O)c5cc(C)ccc5n4)cc23)cc1 [Compound 10] | >114.3 |
| Cc1cc2nc(C)c(C(=O)O)n2cc1-c1ccc(-c2ccccc2)cc1 [Compound 11, 6-([1,1′-Biphenyl]-4-yl)-2,7-dimethylimidazo[1,2-a]pyridine-3-carboxylic acid] | >235.3 |
| Cc1nc2ccc(-c3ccc(-c4ccccc4)cc3)cn2c1C(=O)O [Compound 12, 6-([1,1′-Biphenyl]-4-yl)-2-methylimidazo[1,2-a]pyridine-3-carboxylic acid] | >2.0 |
| Cc1nc2ncc(-c3ccc(-c4ccccc4)cc3)cn2c1C(=O)O [Compound 13, 6-([1,1′-Biphenyl]-4-yl)-2-methylimidazo [1,2-a]pyrimidine-3-carboxylic acid] | >185.2 |

System: SARS-CoV-2
Format: cell-based
Conditions: SI = CC50/IC50

| Structure (SMILES) | SI |
| --- | --- |
| Cc1cc2nc(C)c(C(=O)O)n2cc1-c1ccc(-c2ccccc2)cc1 [Compound 11, 6-([1,1′-Biphenyl]-4-yl)-2,7-dimethylimidazo[1,2-a]pyridine-3-carboxylic acid] | >55.6 |
| Cc1nc2ncc(-c3ccc(-c4ccccc4)cc3)cn2c1C(=O)O [Compound 13, 6-([1,1′-Biphenyl]-4-yl)-2-methylimidazo [1,2-a]pyrimidine-3-carboxylic acid] | >1.9 |
